Anti-infective test results gathered from many reports (values: NIAID ChemDB through PubChem).

All rows: whole-cell or culture tests; species: HIV-1; cell line: CEM; measure: EC50

An empty or dashed field is not shown. ECn is the concentration giving n% inhibition of infection, replication or growth. Two numbers with a dash give a range or band. Lines come from different laboratories, so protocols vary.

compound | strain | changes | method | value
Cc1cn([C@H]2C=C[C@@H](CO)O2)c(=O)[nH]c1=O | LAV | - | p24 | 0.33 µM
Cc1ccnc2c1NC(=O)c1cccnc1N2C1CC1 | IIIB | RT-Y181C | cytopathic effect | 6.8 µg/mL
Cc1cn([C@H]2C[C@H](N=[N+]=[N-])[C@@H](CO)O2)c(=O)[nH]c1=O | LAV | - | p24 | 0.007–0.1 µM
CC(=O)O[C@@H]1[C@H](n2cc(C)c(=O)[nH]c2=O)O[C@@H](COC(=O)c2ccccc2)C12OS(=O)(=O)C=C2N | IIIB | - | syncytia | 31 µg/mL
CN(C)C(=O)c1cnnn1[C@@H]1O[C@H](CO[Si](C)(C)C(C)(C)C)C2(OS(=O)(=O)C=C2N)[C@H]1O[Si](C)(C)C(C)(C)C | HE | - | p24 | 0.32 µM
CCOCn1c(Cc2ccccc2)c(C(C)C)c(=O)[nH]c1=O | - | - | cytopathic effect | 0.003 µg/mL
Cc1cn([C@H]2C=C[C@@H](CO)O2)c(=O)[nH]c1=O | IIIB | - | syncytia | 0.35 µM
CCOCn1c(Cc2ccccc2)c(C(C)C)c(=O)[nH]c1=O | IIIB | RT-E138K | syncytia | 0.018 µg/mL
Fc1cccc(F)c1C1SCc2nc3ccccc3n21 | TSAO-resistant (RT E138K) | RT-E138K | cytopathic effect / MTT | 1.73 µM
CCCCCCCCCCCCCC(=O)OC[C@H](COP(=O)(O)OP(=O)(O)OC[C@@H]1CC[C@H](n2cc(C)c(=O)[nH]c2=O)O1)OC(=O)CCCCCCCCCCCCC | BRU | - | p24 | 1.6 µM
C=CC(C)(C)O[C@H](C)[C@@H]1NC(=O)[C@H]2CSC(=N2)[C@@H](Cc2ccccc2)NC(=O)[C@@H]2CCCN2C(=O)[C@H](CO)NC(=O)C(CC(C)C)NC1=O | - | - | MTT | >78 µM
Cc1ccnc2c1NC(=O)c1cccnc1N2C1CC1 | IIIB TIBO R82913-resistant (RT K103N) | RT-K103N | syncytia | 1.5 µg/mL
Cc1cn([C@H]2C[C@H](N=[N+]=[N-])[C@@H](COC(=O)C3CCC4C5CCC6=CC(=O)CCC6(C)C5C(O)CC34C)O2)c(=O)[nH]c1=O | - | - | cytopathic effect / XTT | 0.567 µM
CC(C)=CCOc1cc(NC(=S)c2ccoc2C)ccc1Cl | IIIB | - | cytopathic effect | 0.0025 µg/mL
Cc1cn([C@H]2C[C@H](N=[N+]=[N-])[C@@H](CO)O2)c(=O)[nH]c1=O | IIIB | RT-V179D | syncytia | 0.001 µg/mL
Cc1cn([C@@H]2O[C@H](CO[Si](C)(C)C(C)(C)C)C3(OS(=O)(=O)C=C3N)[C@H]2O)c(=O)[nH]c1=O | IIIB | - | syncytia | >40 µM
Nc1ncnc2c1ncn2[C@H]1CC[C@@H](CO)O1 | LAV | - | p24 | 1 µM
Cc1c(Sc2ccccc2)n(COCCO)c(=O)[nH]c1=O | IIIB E-EBU(RT-Y181C) | RT-Y181C | syncytia | >100 µg/mL
CCOCn1c(Cc2ccccc2)c(C(C)C)c(=O)[nH]c1=O | P-1 (RT-K103N Y144F) | RT-K103N Y144F | cytopathic effect | 0.7 µg/mL
Cc1ccc(S(=O)(=O)OC[C@H]2O[C@@H](n3cc(C)c(=O)n(C)c3=O)[C@H](O[Si](C)(C)C(C)(C)C)C23OS(=O)(=O)C=C3N)cc1 | IIIB | - | syncytia | >6.2 µM
CC(C)=CCN1Cc2cccc3[nH]c(=S)n(c23)C[C@@H]1C | IIIB | - | - | 0.09 µM
CC(=O)NC1=CS(=O)(=O)OC12[C@@H](COCc1ccccc1)O[C@@H](n1cc(C)c(=O)[nH]c1=O)[C@@H]2OC(C)=O | IIIB | - | syncytia | >160 µM
Cc1cn([C@@H]2O[C@@H](CO[Si](C)(C)C(C)(C)C)C3(OS(=O)(=O)C=C3N)[C@@H]2O[Si](C)(C)C(C)(C)C)c(=O)[nH]c1=O | IIIB | - | syncytia | >20 µg/mL
Cc1cn([C@H]2C=C[C@@H](COP3(=O)Oc4ccccc4C(CCl)O3)O2)c(=O)[nH]c1=O | - | - | - | 0.2 µM
Cc1cn([C@H]2C[C@H](N=[N+]=[N-])[C@@H](CO)O2)c(=O)[nH]c1=O | I-232 | - | antigen | <0.01 µM
Cc1cn([C@@H]2O[C@H](CO[Si](C)(C)C(C)(C)C)C3(OS(=O)(=O)C=C3N)[C@H]2O[Si](C)(C)C(C)(C)C)c(=O)n(C)c1=O | IIIB | - | syncytia | 0.11 ± 0.08 µM
Cc1cc(C=O)cc2c1OP(=O)(OC[C@@H]1C=C[C@H](n3cc(C)c(=O)[nH]c3=O)O1)OC2 | - | - | - | 0.26 µM
Cc1cn([C@H]2C=C[C@@H](COP3(=O)OCc4c(ccc5ccccc45)O3)O2)c(=O)[nH]c1=O | - | - | - | 0.08 µM
Cc1cn([C@H]2C[C@H](N=[N+]=[N-])[C@@H](CO)O2)c(=O)[nH]c1=O | LAV | - | p24 | 0.15 µM
Cc1cn([C@@H]2O[C@H](CO[Si](c3ccccc3)(c3ccccc3)C(C)(C)C)C3(OS(=O)(=O)C=C3N)[C@H]2O[Si](c2ccccc2)(c2ccccc2)C(C)(C)C)c(=O)[nH]c1=O | IIIB | - | syncytia | >150 µM
C[C@]12CC[C@H](OS(=O)(=O)O)CC1=CC[C@@H]1[C@@H]2CC[C@]2(C)C(=O)CC[C@@H]12 | LAV | - | RT activity | 19.8 µM
Cc1cn([C@H]2C=C[C@@H](CO)O2)c(=O)[nH]c1=O | - | - | - | 0.42 µM
Cc1cn([C@H]2C[C@H](N=C(NC#N)Oc3ccccc3)[C@@H](CO)O2)c(=O)[nH]c1=O | IIIB | - | cytopathic effect / MTT | 25 µg/mL
Nc1cc(OCCOCP(=O)(O)O)nc(N)n1 | IIIB | - | syncytia | 3.1 µM
CCOCn1c(Sc2ccccc2)c(CC)c(=O)[nH]c1=O | IIIB PYR(RT-Y181C) | RT-Y181C | syncytia | 0.26 µg/mL
c1ccc(C2OCc3nc4ccccc4n32)cc1 | TIBO R82150-resistant (RT L100I) | RT-L100I | cytopathic effect / MTT | 11 µM
Cc1cn([C@@H]2O[C@H](CO[Si](C)(C)C(C)(C)C)C3(OS(=O)(=O)C=C3N)[C@H]2O[Si](C)(C)C(C)(C)C)c(=O)n(C)c1=O | TSAO-m3T-resistant (RT E138K) | RT-E138K | - | >80 µM
CC[C@H]1C(=O)Nc2ccc(F)cc2N1C(=O)OC(C)C | B-1 (RT L100V K103R/K Y188H) | RT-L100V K103R/K Y188H | cytopathic effect | 0.0082 µg/mL
CCOCn1c(Sc2ccccc2)c(CC)c(=O)[nH]c1=S | IIIB BHAP(RT-L100I) | RT-L100I | syncytia | 0.07 µg/mL
CC(C)(C)[Si](C)(C)OC[C@H]1O[C@@H](n2cc(CBr)nn2)[C@H](O[Si](C)(C)C(C)(C)C)C12OS(=O)(=O)C=C2N | IIIB | - | syncytia | 1.3 µM
CC(C)=CCN1Cc2cc(Cl)cc3[nH]c(=S)n(c23)C[C@@H]1C | IIIB | - | syncytia | 0.023 µg/mL
Cc1cn([C@H]2C[C@H](N=[N+]=[N-])[C@@H](CO)O2)c(=O)[nH]c1=O | IIIB | - | syncytia | 0.003 µM
C=CCn1c(=O)c(C)cn([C@@H]2O[C@H](CO[Si](C)(C)C(C)(C)C)C3(OS(=O)(=O)C=C3N)[C@H]2O[Si](C)(C)C(C)(C)C)c1=O | IIIB | - | syncytia | 0.111 µM
Cc1cn([C@H]2C=C[C@@H](COP3(=O)Oc4ccccc4C(C(Cl)(Cl)Cl)O3)O2)c(=O)[nH]c1=O | - | - | - | 0.2 µM
COC(=O)[C@H](C)NP(=O)(OC[C@@H]1O[C@H](n2ccc(N)nc2=O)CS1)Oc1ccccc1 | IIIB | - | syncytia | 1.1 µM
Nc1nc2c(ncn2CCOCP(=O)(O)O)c(=O)[nH]1 | HE | - | - | 1.4 µM
C[C@H](Cn1cnc2c(N)ncnc21)OCP(=O)(O)O | IIIB | RT-V179D | syncytia | 0.9 µg/mL
Nc1nc(N)c(C=O)c(OCCOCP(=O)(O)O)n1 | IIIB | - | syncytia | 4.5 µM
Cc1cn([C@@H]2O[C@H](CO[Si](c3ccccc3)(c3ccccc3)C(C)(C)C)C3(OS(=O)(=O)C=C3N)[C@H]2O[Si](C)(C)C(C)(C)C)c(=O)n(C)c1=O | IIIB | - | syncytia | >60 µM
CC(C)=CCOc1cc(NC(=S)c2ccsc2C)ccc1Cl | IIIB | - | syncytia | 0.002 µg/mL
CC(C)(C)NC(=O)[C@@H]1CCCN1C(=O)[C@@H](O)[C@H](Cc1ccccc1)NC(=O)[C@H](CC(N)=O)NC(=O)c1cnc2ccccc2n1 | IIIB | - | p24 | <0.5 µM
Cc1cn([C@H]2C[C@H](Nc3nc(N)nn3C)[C@@H](CO)O2)c(=O)[nH]c1=O | IIIB | - | cytopathic effect / MTT | 55 µg/mL
CC(C)(C)OC(=O)[C@@H]1CCCN1C(=O)[C@@H](O)[C@H](Cc1ccccc1)NC(=O)[C@H](CC(N)=O)NC(=O)c1ccc2ccccc2n1 | IIIB | - | antigen | 0.2 µM
Cc1ccnc2c1NC(=O)c1cccnc1N2C1CC1 | IIIB | RT-K103N | syncytia | 1.8 µg/mL
Cc1cn([C@@H]2O[C@H](CC3CCCCC3)C3(OS(=O)(=O)C=C3N)[C@H]2O[Si](C)(C)C(C)(C)C)c(=O)[nH]c1=O | IIIB | - | syncytia | >4 µg/mL
C1CNCCNCCCN[C@H]([C@@H]2CNCCCNCCNCCCN2)CNC1 | IIIB | - | antigen | 0.72 µM
Cc1cn([C@@H]2O[C@H](CO[Si](C)(C)C(C)(C)C)C3(OS(=O)(=O)C=C3N)[C@H]2O[Si](C)(C)C(C)(C)C)c(=O)n(C)c1=O | IIIB | RT-E138K | syncytia | >50 µg/mL
Cc1cn([C@H]2C[C@H](N=[N+]=[N-])[C@@H](COC(=O)[C@@]3(O)CCC4C5CCC6=CC(=O)C=CC6(C)C5C(O)CC43C)O2)c(=O)[nH]c1=O | - | - | cytopathic effect / XTT | 1.65 µM
Cc1cn([C@@H]2O[C@H](CO)C3(OS(=O)(=O)C=C3N)[C@H]2O[Si](C)(C)C(C)(C)C)c(=O)[nH]c1=O | IIIB | - | syncytia | >80 µM
C=C(C)OC(=O)N1c2cc(Cl)ccc2NC(=S)C1(C)C | IIIB Laboratory clade B | - | syncytia | 0.001 µg/mL
Cc1cn([C@@H]2O[C@H](COCc3ccccc3)C3(OS(=O)(=O)C=C3NC(=O)c3ccccc3)[C@H]2OC(=O)c2ccccc2)c(=O)[nH]c1=O | IIIB | - | syncytia | ≥40 µM
Cc1cn([C@H]2C[C@@H]3NC(NC#N)=NC[C@H]3O2)c(=O)[nH]c1=O | IIIB | - | cytopathic effect / MTT | >100 µg/mL
Cc1occc1C(=S)Nc1ccc(Cl)c(/C=N/OC(C)(C)C)c1 | IIIB | - | cytopathic effect | 0.016 µg/mL
Cc1cc(SC2=C(O)CC(CCc3ccc(O)cc3)(C3CCCCC3)OC2=O)c(C(C)(C)C)cc1OS(=O)(=O)N(C)C | IIIB | - | - | 5 µM
Cc1cn([C@H]2C[C@H](N=[N+]=[N-])[C@@H](CO)O2)c(=O)[nH]c1=O | IIIB | - | cytopathic effect / XTT | 0.014 µg/mL
Nc1ccn([C@H]2CC[C@@H](CO)O2)c(=O)n1 | IIIB | - | cytopathic effect / MTT | 0.019 µM
Cc1cn([C@@H]2O[C@H](CO[Si](C)(C)C(C)(C)C)C3(OS(=O)(=O)C=C3N)[C@H]2O[Si](C)(C)C(C)(C)C)c(=O)n(C)c1=O | IIIB | - | syncytia | 0.06 µM
Cc1cn([C@@H]2O[C@@H](COC(=O)c3ccccc3)C3(OS(=O)(=O)C=C3N)C2O[Si](C)(C)C(C)(C)C)c(=O)[nH]c1=O | IIIB | - | syncytia | >100 µg/mL
Cc1cn([C@@H]2O[C@H](CO[Si](C)(C)C(C)(C)C)C3(OS(=O)(=O)C=C3N)[C@H]2O)c(=O)[nH]c1=O | IIIB | - | syncytia | >40 µM
CCCc1cn([C@@H]2O[C@H](CO[Si](C)(C)C(C)(C)C)C3(OS(=O)(=O)C=C3N)[C@H]2O[Si](C)(C)C(C)(C)C)nn1 | HE | - | p24 | 1.7 µM

A second listing of 9 rows from above:

compound	strain	changes	method	value
C[C@]12CC[C@H](OS(=O)(=O)O)CC1=CC[C@@H]1[C@@H]2CC[C@]2(C)C(=O)CC[C@@H]12	LAV	-	RT activity	19.8 µM
CC(C)(C)OC(=O)[C@@H]1CCCN1C(=O)[C@@H](O)[C@H](Cc1ccccc1)NC(=O)[C@H](CC(N)=O)NC(=O)c1ccc2ccccc2n1	IIIB	-	antigen	0.2 µM
Cc1cn([C@@H]2O[C@H](CO[Si](C)(C)C(C)(C)C)C3(OS(=O)(=O)C=C3N)[C@H]2O[Si](C)(C)C(C)(C)C)c(=O)n(C)c1=O	IIIB	-	syncytia	0.06 µM
Cc1cn([C@H]2C[C@H](N=C(NC#N)Oc3ccccc3)[C@@H](CO)O2)c(=O)[nH]c1=O	IIIB	-	cytopathic effect / MTT	25 µg/mL
Cc1cn([C@@H]2O[C@H](CO[Si](c3ccccc3)(c3ccccc3)C(C)(C)C)C3(OS(=O)(=O)C=C3N)[C@H]2O[Si](c2ccccc2)(c2ccccc2)C(C)(C)C)c(=O)[nH]c1=O	IIIB	-	syncytia	>150 µM
Cc1cn([C@@H]2O[C@H](COCc3ccccc3)C3(OS(=O)(=O)C=C3NC(=O)c3ccccc3)[C@H]2OC(=O)c2ccccc2)c(=O)[nH]c1=O	IIIB	-	syncytia	≥40 µM
Cc1cn([C@H]2C[C@H](N=[N+]=[N-])[C@@H](CO)O2)c(=O)[nH]c1=O	I-232	-	antigen	<0.01 µM
COC(=O)[C@H](C)NP(=O)(OC[C@@H]1O[C@H](n2ccc(N)nc2=O)CS1)Oc1ccccc1	IIIB	-	syncytia	1.1 µM
CCOCn1c(Cc2ccccc2)c(C(C)C)c(=O)[nH]c1=O	IIIB	RT-E138K	syncytia	0.018 µg/mL